Results of unrelated studies side by side (data: NIAID ChemDB).

Shared fields: growth or infection tests; species: Candida albicans; measure: MIC100

A number after MIC or MFC names an inhibition level or a share of isolates.

compound | strain or isolate | result
Cc1nc(OCc2nc(-c3ccc(Br)cc3)n[nH]2)c2ccccc2n1 | MTCC 227 | 12.5 µg/mL
CC(=O)N1CCN(c2nc3ccc4oc(=O)ccc4c3s2)CC1 | MTCC 183 | 62.5 µg/mL
O/N=C\c1ccccc1 |  | 8260 µM
O=C1CSC(N2N=C(c3ccccc3O)CC2c2cc3ccccc3nc2Cl)=N1 | MTCC 227 | 1000 µg/mL
COc1cc(/C=C2\SC(c3ccc(F)cc3)N(NC(=O)c3ccc(-n4c(-c5ccc(C)cc5)nc5ccccc5c4=O)cc3)C2=O)cc(OC)c1OC | MTCC 227 | 1000 µg/mL
CC(=O)Nc1ccc(OCC(=O)N2N=C(c3nc4ccccc4[nH]3)CC2c2ccccc2Cl)cc1 | MTCC 227 | 1001 µg/mL
Cc1ccc(-c2nc3ccccc3c(=O)n2-c2ccc(C(=O)NN3C(=O)/C(=C/c4ccc(Cl)cc4)SC3c3ccc(F)cc3)cc2)cc1 | MTCC 227 | 500 µg/mL
O=C(Oc1cc2cc(Br)cnc2[nH]1)c1ccccc1 | ATCC 10231 | 23.5 µg/mL
O=c1ccc2c(ccc3nc(N4CCN(c5cccc(Cl)c5Cl)CC4)sc32)o1 | MTCC 183 | 100 µg/mL
O=C1CSC(N2N=C(c3ccccc3Cl)CC2c2cc3ccccc3nc2Cl)=N1 | MTCC 227 | 500 µg/mL
Cc1ccccc1OCc1n[nH]c(=S)n1N1C(=O)CSC12CCc1ccccc12 |  | 6.25 µg/mL
CC(=O)Nc1ccc(OCC(=O)N2N=C(c3nc4ccccc4[nH]3)CC2c2ccccc2F)cc1 | MTCC 227 | 50 µg/mL
Cc1ccc(-c2nc3ccccc3c(=O)n2-c2ccc(C(=O)NN3C(=O)/C(=C/c4ccc(F)cc4)SC3c3ccc(F)cc3)cc2)cc1 | MTCC 227 | 500 µg/mL
COc1ccc(-c2n[nH]c(COc3nc(C(F)(F)F)nc4ccccc34)n2)cc1 | MTCC 227 | 12.5 µg/mL
Cc1ccc(-c2nc3ccccc3c(=O)n2-c2ccc(C(=O)NN3C(=O)/C(=C/c4cccc(Cl)c4)SC3c3ccc(F)cc3)cc2)cc1 | MTCC 227 | 1000 µg/mL
FC(F)(F)c1nc(OCc2nc(-c3ccc(Br)cc3)n[nH]2)c2ccccc2n1 | MTCC 227 | 6.25 µg/mL
Cc1ccc(OCc2n[nH]c(=S)n2N2C(=O)CSC23CCc2ccccc23)cc1 |  | 3.13 µg/mL
COc1cc(-c2n[nH]c(COc3nc(C(F)(F)F)nc4ccccc34)n2)cc(OC)c1OC | MTCC 227 | 6.25 µg/mL
O=C1CSC(N2N=C(c3ccccc3[N+](=O)[O-])CC2c2cc3ccccc3nc2Cl)=N1 | MTCC 227 | 250 µg/mL
O=C1CSC2(CCc3ccccc32)N1n1c(-c2ccc(Cl)cc2)n[nH]c1=S |  | 25 µg/mL
COc1ccc(-c2n[nH]c(COc3nc(C)nc4ccccc34)n2)cc1 | MTCC 227 | 6.25 µg/mL
O/N=C/c1ccc(O)cc1 |  | >7290 µM
O=C1CSC(N2N=C(c3ccc(Cl)cc3)CC2c2cc3ccccc3nc2Cl)=N1 | MTCC 227 | 500 µg/mL
Cc1ccccc1N1C(=O)C(Cl)C12C(=O)Nc1ccccc12 | MTCC 183 | 11 µg/mL
CCN1CCN(c2nc3ccc4oc(=O)ccc4c3s2)CC1 | MTCC 183 | 200 µg/mL
C=C(C)C(=O)OCCCCCCCCCC[n+]1ccccc1.[Br-] | ATCC 90028 | 630 µg/mL
Cc1nc(OCc2nc(-c3ccc(Cl)cc3)n[nH]2)c2ccccc2n1 | MTCC 227 | 6.25 µg/mL
CC(=O)Nc1ccc(OCC(=O)N2N=C(c3nc4ccccc4[nH]3)CC2c2ccc(C)cc2)cc1 | MTCC 227 | 500 µg/mL
O=C1C(Cl)C2(C(=O)Nc3c(Br)cc(Br)cc32)N1c1ccccc1[N+](=O)[O-] | MTCC 183 | 19 µg/mL
O=C1CSC2(CCc3ccccc32)N1n1c(-c2ccc([N+](=O)[O-])cc2)n[nH]c1=S |  | 25 µg/mL
O=C1C(Cl)C2(C(=O)Nc3ccccc32)N1c1ccccc1[N+](=O)[O-] | MTCC 183 | >100 µg/mL
COc1ccc(-c2cc3cccnc3[nH]2)cc1 | ATCC 10231 | 15.6 µg/mL
O=C1C(Cl)C2(C(=O)Nc3c(Br)cc(Br)cc32)N1c1ccccc1 | MTCC 183 | 17 µg/mL
O/N=C\c1ccc(F)cc1 |  | 7200 µM
CC(=O)Nc1ccc(OCC(=O)N2N=C(c3nc4ccccc4[nH]3)CC2c2ccc([N+](=O)[O-])cc2)cc1 | MTCC 227 | 100 µg/mL
O/N=C\c1ccccc1Cl |  | 710 µM
Cn1c(=O)ccc2c3sc(N4CCN(c5cccc(Cl)c5Cl)CC4)nc3ccc21 | MTCC 183 | 62.5 µg/mL
COc1ccc(/C=N/O)cc1 |  | >6620 µM
COc1ccc(C2=NN(C3=NC(=O)CS3)C(c3cc4ccccc4nc3Cl)C2)cc1 | MTCC 227 | 1000 µg/mL
O=C1C(Cl)C2(C(=O)Nc3ccccc32)N1c1ccccc1 | MTCC 183 | 23 µg/mL
COc1ccc(-c2cc3cc(C)cnc3[nH]2)cc1 | ATCC 10231 | 31.3 µg/mL
C/C(Cl)=C/C=C/C=C/C=C/C=C/C(O)=C1\C(=O)[C@H](CC(N)=O)N(C2OC[C@@H](O)[C@H](O)[C@@H]2O[C@@H]2OC[C@@H](O[C@@H]3O[C@H](C)[C@@H](O)[C@@H]3O)[C@@H](O)[C@@H]2O)C1=O | Amphotericin resistant (ATCC 90873) | 31.25 µg/mL
C[C@H]1[C@H](O)[C@@H](C)/C=C/C=C/C=C/C=C/C=C/C=C/C=C/[C@H](O[C@@H]2O[C@H](C)[C@@H](O)[C@H](N)[C@@H]2O)C[C@@H]2O[C@](O)(C[C@@H](O)C[C@@H](O)CC[C@H](O)[C@@H](O)C[C@@H](O)CC(=O)O[C@H]1C)C[C@H](O)[C@H]2C(=O)O | ATCC 10231 | 2.5 µg/mL
O=C1CSC(N2N=C(c3cccc([N+](=O)[O-])c3)CC2c2cc3ccccc3nc2Cl)=N1 | MTCC 227 | 500 µg/mL
CC(=O)Nc1ccc(OCC(=O)N2N=C(c3nc4ccccc4[nH]3)CC2c2ccccc2[N+](=O)[O-])cc1 | MTCC 227 | 100 µg/mL
COc1ccc(-c2cc3cc(Cl)cnc3[nH]2)c(C)c1 | ATCC 10231 | 250 µg/mL

A second listing of 4 rows from above:

compound	strain or isolate	result
COc1ccc(-c2cc3cc(Cl)cnc3[nH]2)c(C)c1	ATCC 10231	250 µg/mL
COc1ccc(-c2n[nH]c(COc3nc(C)nc4ccccc34)n2)cc1	MTCC 227	6.25 µg/mL
Cc1ccc(-c2nc3ccccc3c(=O)n2-c2ccc(C(=O)NN3C(=O)/C(=C/c4cccc(Cl)c4)SC3c3ccc(F)cc3)cc2)cc1	MTCC 227	1000 µg/mL
O=C1CSC2(CCc3ccccc32)N1n1c(-c2ccc(Cl)cc2)n[nH]c1=S		25 µg/mL

Blank or dashed fields: not listed here. Neighbouring rows are from separate reports.